## RC index of single-base changes in HIV-1 Nef

Protein: Nef of HIV-1 NL4-3, numbered from its first residue.
From base 9076 on, changes also alter the 3' U3.
Effects on overlapping genes or RNA elements are not listed.

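Seven fragments of pNL4-3 were mutated by error-prone PCR, and each virus pool was passaged in CEM T cells. Sequencing gave the RC index: frequency after two rounds over frequency in the input plasmid.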

Values are the RC index; higher means better tolerated. The authors read about 0.1 or less as lethal, 0.1-0.2 as attenuated and 0.2 or more as tolerated.
Substitutions are written as wild-type residue, site number, new residue.
Input reads are the counts in the plasmid library.

mutation	base	input reads	RC
E59A	A8962C	37	0.267
E18D	A8840T	298	0.0263
C142Y	G9211A	538	0.417
E98Q	G9078C	30	0.449
H102Q	C9092A	183	0.378
S8N	G8809A	349	0.738
E177Q	G9315C	34	0.422
E62V	A8971T	208	0.929
L100I	C9084A	193	0.598
R21S	A8849T	91	0.911
P176H	C9313A	386	0.743
H193Q	C9365G	127	0.505
F90L	T9056G	48	0.240
G119S	G9141A	226	0.596
W113S	G9124C	60	0.865
L112P	T9121C	330	0.577
V180E	T9325A	261	1.12
P150A	C9234G	55	0.379
E182G	A9331G	310	0.307
A190P	G9354C	47	0.862
E160G	A9265G	355	1.49
P122L	C9151T	146	0.619
F185I	T9339A	279	0.611
V168E	T9289A	442	0.752
T80S	A9024T	346	0.567
M173I	G9305T	316	0.718
K144N	G9218C	57	0.526
K158N	A9260C	52	0.501
K4Q	A8796C	40	0.138
K4N	G8798C	44	0.818
V66L	G8982T	46	0.215
S46R	C8924A	102	0.290
Q118L	A9139T	290	0.729
W113L	G9124T	274	0.835
P78S	C9018T	326	1.04
Y127H	T9165C	355	0.634
D151Y	G9237T	164	0.580
H116D	C9132G	85	0.498
C55W	T8951G	36	0.549
F191L	T9357C	276	0.838
K4E	A8796G	490	0.0678
V85I	G9039A	333	1.36
T44I	C8917T	202	0.985
W57C	G8957C	98	1.94
S46G	A8922G	227	0.963
E177K	G9315A	231	1.40
E177G	A9316G	352	0.703
S163G	A9273G	284	0.578
A49T	G8931A	357	0.960
E59D	A8963T	318	1.10
T48R	C8929G	85	0.432
Q107R	A9106G	474	0.726
V74L	G9006T	44	0.289
L110I	C9114A	477	1.04
P136Q	C9193A	300	0.608
N52I	A8941T	294	0.797
H89Q	C9053A	111	0.866
V16A	T8833C	128	0.196
R77I	G9016T	124	0.649
R188G	C9348G	40	1.35
K82N	G9032T	295	1.06
G140E	G9205A	234	0.863
I114V	A9126G	345	1.04
S103C	C9094G	59	0.880
L87H	T9046A	370	0.541
G140V	G9205T	111	0.446
I43F	A8913T	267	0.756
E18G	A8839G	140	0.0671
Y202N	T9390A	103	1.30
V194L	G9366T	108	0.688
S8R	A8808C	106	0
L145V	C9219G	45	0.927
G172E	G9301A	247	1.01
H102N	C9090A	171	0.664
G172A	G9301C	82	0.270
Y143H	T9213C	275	0.417
W13R	T8823C	185	0.364
S8T	G8809C	42	0.198
G3A	G8794C	81	0.120

A selection of 6 entries from above:

{"mutation": "K4E", "base": "A8796G", "input reads": "490", "RC": 0.0678}
{"mutation": "L145V", "base": "C9219G", "input reads": "45", "RC": 0.927}
{"mutation": "H193Q", "base": "C9365G", "input reads": "127", "RC": 0.505}
{"mutation": "K158N", "base": "A9260C", "input reads": "52", "RC": 0.501}
{"mutation": "A49T", "base": "G8931A", "input reads": "357", "RC": 0.960}
{"mutation": "F185I", "base": "T9339A", "input reads": "279", "RC": 0.611}

An index over 1, which the authors read as above wild type, was rare (1.9% of all changes in the genome).
Base changes are numbered along pNL4-3.
Since each clone held several changes (about five per kb), neutral changes can read low.

From the data files of Al-Mawsawi et al. 2014, doi:10.1186/s12977-014-0124-6.